# Values quoted from earlier work in patent publication US11466029B2, “Compounds useful to treat influenza virus infections” (Nanjing Zhengxiang Pharmaceuticals Co., Ltd., priority 2019, dated 2022).
# Conditions: rat, in vivo; cited from earlier work
smiles,measurement,value
"O=C1c2c(O)c(=O)ccn2N([C@@H]2c3ccccc3SCc3c2ccc(F)c3F)[C@@H]2COCCN12 [Baloxavir acid, reference compound]",oral bioavailability of baloxavir,0.69%
